Compound potency records, mixed from different reports. Data source: NIAID ChemDB in PubChem.

Common to all: cytotoxicity tests; cell line: CEM; measure: CC50

CCn: concentration that lowers growth or viability of the cells by n%.

structure	result
CC(=O)COc1cc(NC(=S)OC(C)C)ccc1Cl	77 µM
CC(NC(=O)c1ccccc1SSc1ccccc1C(=O)NC(C)C(=O)O)C(=O)O	>100 µM
O=S(=O)(O)c1ccc(N=Nc2ccc(N=Nc3ccc(/C=C/c4ccc(N=[N+]([O-])c5ccc(/C=C/c6ccc(N=Nc7ccc(N=Nc8ccc(S(=O)(=O)O)cc8)c8ccccc78)cc6S(=O)(=O)O)c(S(=O)(=O)O)c5)cc4S(=O)(=O)O)c(S(=O)(=O)O)c3)c3ccccc23)cc1	>16 µM
CC(C)OC(=S)Nc1ccc(Cl)c(COC(C)(C)C)c1	34.82 µM
O=C(O)CCC[C@H](NC(=O)c1ccccc1SSc1ccccc1C(=O)N[C@@H](CCCC(=O)O)C(=O)O)C(=O)O	>100 µM
Nc1ccc2cc(S(=O)(=O)O)cc(O)c2c1N=Nc1ccc(NC(=O)Nc2ccc(N=Nc3c(N)ccc4cc(S(=O)(=O)O)cc(O)c34)c(S(=O)(=O)O)c2)cc1S(=O)(=O)O	>190 µM
CCCCCC(=O)Nc1nc(N)nc2c1ncn2[C@H]1CO[C@@H](COP(=O)(N[C@@H](C)C(=O)OCC)Oc2ccccc2)O1	89 µM
CC(C)OC(=O)Nc1ccc(Cl)c(C(=O)OC(C)C)c1	>333.6 µM
CC(C)OC(=S)Nc1ccc(Cl)c(OC(F)F)c1	34.7 µM
CC(C)COC(=O)c1cc(NC(=S)OC(C)C)ccc1Cl	30.32 µM
O=c1ccn([C@H]2CCC[C@@H]2CO)c(=O)[nH]1	>100 µg/mL
CCOC(=O)[C@H](C)NP(=O)(OC[C@@H]1OC[C@H](n2cnc3c(N)nc(N)nc32)O1)Oc1ccccc1	>100 µM
O=[N+]([O-])c1ccc(/C=C/c2ccc(N=Nc3ccc(/C=C/c4ccc([N+](=O)[O-])cc4S(=O)(=O)O)c(S(=O)(=O)O)c3)cc2S(=O)(=O)O)c(S(=O)(=O)O)c1	>112 µM
O=C(O)CCCNC(=O)c1ccccc1SSc1ccccc1C(=O)NCCCC(=O)O	>100 µM
Nc1cc(O)c2cc(N=Nc3ccc(N=Nc4ccc(N=Nc5ccc6cc(S(=O)(=O)O)cc(S(=O)(=O)O)c6c5)c5ccccc45)c4cc(S(=O)(=O)O)ccc34)c(S(=O)(=O)O)cc2c1	>97 µM
C=CCOc1cc(NC(=S)OC(C)C)ccc1C#N	13.75 µM
CCCC(=O)Nc1nc(N)nc2c1ncn2[C@H]1CO[C@@H](COP(=O)(N[C@@H](C)C(=O)OCC)Oc2ccccc2)O1	>100 µM
C/C=C/COc1cc(NC(=S)OC(C)C)ccc1Cl	19.7 µM
CCOC(=O)[C@H](C)NP(=O)(OC[C@@H]1OC[C@H](n2cnc3c(NC(C)=O)nc(N)nc32)O1)Oc1ccccc1	>100 µM
CC(=O)OCCOC(=O)c1cc(NC(=S)OC(C)C)ccc1Cl	47.24 µM
O=c1ccn(C[C@H]2CCC[C@H]2CO)c(=O)[nH]1	>100 µg/mL
CC(C)OC(=S)Nc1ccc(Cl)c(OC(=O)C(C)C)c1	55.6 µM
CCCCCCCC/C=C\CCCCCCCC(=O)Nc1nc(N)nc2c1ncn2[C@H]1CO[C@@H](COP(=O)(N[C@@H](C)C(=O)OCC)Oc2ccccc2)O1	10 µM
CC(C)(C)[C@H](NC(=O)c1ccccc1SSc1ccccc1C(=O)N[C@H](C(=O)O)C(C)(C)C)C(=O)O	>100 µM
C=C(C)COc1cc(NC(=S)OC(C)C)ccc1Cl	36.69 µM
CCC[C@@H](CC(=O)O)NC(=O)c1ccccc1SSc1ccccc1C(=O)N[C@@H](CCC)CC(=O)O	>100 µM
CCCOC(=S)Nc1ccc(Cl)c(C(=O)OC(C)C)c1	22.16 µM
C#CCO/N=C/c1cc(NC(=O)c2ccoc2C)ccc1Cl	16 µM
COCCOC(=S)Nc1ccc(Cl)c(C(=O)OC(C)C)c1	60.27 µM
O=c1[nH]c(=O)n(C[C@H]2CCC[C@H]2CO)cc1I	>100 µg/mL
Nc1ccc(N=Nc2ccc(C=Cc3ccc(N=Nc4ccc(N)c5ccc(S(=O)(=O)O)cc45)cc3S(=O)(=O)O)c(S(=O)(=O)O)c2)c2cc(S(=O)(=O)O)ccc12	43 µM
C/C=C\COc1cc(NC(=S)OC(C)C)ccc1OC	24.03 µM
COc1cc(-c2ccc(N=Nc3ccc4c(S(=O)(=O)O)cc(S(=O)(=O)O)c(N)c4c3O)c(OC)c2)ccc1N=Nc1ccc2c(S(=O)(=O)O)cc(S(=O)(=O)O)c(N)c2c1O	>100 µM
CC(C)OC(=S)Nc1ccc(Cl)c(C(=O)OCC(F)(F)F)c1	157 µM

Repeating the final 2 entries:

{"structure": "COc1cc(-c2ccc(N=Nc3ccc4c(S(=O)(=O)O)cc(S(=O)(=O)O)c(N)c4c3O)c(OC)c2)ccc1N=Nc1ccc2c(S(=O)(=O)O)cc(S(=O)(=O)O)c(N)c2c1O", "result": ">100 µM"}
{"structure": "CC(C)OC(=S)Nc1ccc(Cl)c(C(=O)OCC(F)(F)F)c1", "result": "157 µM"}

Lines come from different laboratories, so protocols vary.